Experimental findings from publication PMC3328272, “HIV-1 Nef interaction influences the ATP-binding site of the Src-family kinase, Hck” (BMC Chemical Biology, 2012) are described below.

Chains of the proteins cited; added tags and fusions are not shown. Residues count along the entry.
UniProt P08103, 76-524 Q521E/Q522E/Q523I: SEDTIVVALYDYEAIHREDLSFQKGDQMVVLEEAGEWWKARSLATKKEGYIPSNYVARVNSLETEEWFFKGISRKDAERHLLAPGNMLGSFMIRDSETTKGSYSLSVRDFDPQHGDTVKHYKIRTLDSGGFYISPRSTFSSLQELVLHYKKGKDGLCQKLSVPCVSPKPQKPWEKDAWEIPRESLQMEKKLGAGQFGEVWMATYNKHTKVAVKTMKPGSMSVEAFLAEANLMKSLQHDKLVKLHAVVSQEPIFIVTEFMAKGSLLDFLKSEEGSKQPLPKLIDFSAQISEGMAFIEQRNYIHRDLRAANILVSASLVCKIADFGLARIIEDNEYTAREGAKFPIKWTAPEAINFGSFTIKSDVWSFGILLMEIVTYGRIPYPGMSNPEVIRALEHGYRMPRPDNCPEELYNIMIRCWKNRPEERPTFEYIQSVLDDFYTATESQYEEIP
UniProt P08103, 76-524 T331A/Q521E/Q522E/Q523I limits assumed: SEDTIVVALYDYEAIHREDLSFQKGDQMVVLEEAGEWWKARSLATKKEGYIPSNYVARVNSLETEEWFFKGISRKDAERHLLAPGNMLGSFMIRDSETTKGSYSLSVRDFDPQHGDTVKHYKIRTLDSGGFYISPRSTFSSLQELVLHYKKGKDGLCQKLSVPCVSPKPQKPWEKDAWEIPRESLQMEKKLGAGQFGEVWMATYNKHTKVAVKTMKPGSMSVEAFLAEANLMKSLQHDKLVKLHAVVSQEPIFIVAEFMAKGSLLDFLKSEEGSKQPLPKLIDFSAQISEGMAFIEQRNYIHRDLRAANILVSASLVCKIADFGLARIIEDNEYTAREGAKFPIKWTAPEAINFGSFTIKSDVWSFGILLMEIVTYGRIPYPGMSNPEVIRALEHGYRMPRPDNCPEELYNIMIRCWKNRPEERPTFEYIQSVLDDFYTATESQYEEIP
UniProt P08103, whole entry E88T/A89S/I90P/H91F/R92P/E93W/T331A/Q521E/Q522E/Q523I, looked up: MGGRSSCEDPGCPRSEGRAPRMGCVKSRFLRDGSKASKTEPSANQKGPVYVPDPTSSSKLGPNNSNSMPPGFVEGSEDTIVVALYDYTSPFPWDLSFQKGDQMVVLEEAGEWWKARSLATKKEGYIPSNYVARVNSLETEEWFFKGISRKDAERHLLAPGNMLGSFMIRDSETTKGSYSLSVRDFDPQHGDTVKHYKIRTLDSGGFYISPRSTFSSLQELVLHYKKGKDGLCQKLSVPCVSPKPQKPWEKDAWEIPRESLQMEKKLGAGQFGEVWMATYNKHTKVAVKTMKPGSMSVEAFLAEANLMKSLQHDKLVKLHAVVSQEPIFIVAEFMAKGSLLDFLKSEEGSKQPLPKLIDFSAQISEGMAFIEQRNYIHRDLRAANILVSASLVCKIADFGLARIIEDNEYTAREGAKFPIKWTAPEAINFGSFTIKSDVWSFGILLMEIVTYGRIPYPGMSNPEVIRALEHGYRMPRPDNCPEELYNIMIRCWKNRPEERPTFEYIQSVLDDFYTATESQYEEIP
UniProt P08103, 76-524 E88T/A89S/I90P/H91F/R92P/E93W/T331A/Q521E/Q522E/Q523I: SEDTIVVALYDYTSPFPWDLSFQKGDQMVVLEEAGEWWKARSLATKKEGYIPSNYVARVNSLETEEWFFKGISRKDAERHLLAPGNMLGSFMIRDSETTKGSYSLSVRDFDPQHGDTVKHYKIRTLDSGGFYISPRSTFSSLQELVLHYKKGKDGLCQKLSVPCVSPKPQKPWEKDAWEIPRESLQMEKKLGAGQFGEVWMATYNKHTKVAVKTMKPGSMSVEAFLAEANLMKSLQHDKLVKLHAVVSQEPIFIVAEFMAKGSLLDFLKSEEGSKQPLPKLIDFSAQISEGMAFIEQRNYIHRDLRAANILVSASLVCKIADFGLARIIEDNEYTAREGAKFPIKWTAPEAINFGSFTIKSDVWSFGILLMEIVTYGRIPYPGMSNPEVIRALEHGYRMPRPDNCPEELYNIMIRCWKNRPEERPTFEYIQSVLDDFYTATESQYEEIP

One assay deals with T1, mHck + Nef-SF2 (Mus musculus, UniProt P08103, Q521E/Q522E/Q523I).
T1 construct: the N-terminal unique domain was replaced with a hexahistidine tag; hexahistidine (N); made in house; host or cells: Hck: Sf9 insect cells; Nef: E. coli
The assay is described as follows: Z'-Lyte in vitro kinase assay, mHck + Nef-SF2. It counts as biochemical. The following applies: mHck + Nef-SF2 (10-fold molar excess); ATP at twice the Km; read-out: IC50, NaPP1. The method, then: (§1) Protein-tyrosine kinase assays were performed using the FRET-based Z'-Lyte kinase assay kit and Tyr-2 peptide substrate according to the manufacturer's instructions (Life Technologies) and our previous work. All assays were performed in quadruplicate in low-volume, non-binding 384-well plates (Corning). To determine the Km for ATP, time course experiments were run at fixed concentrations of substrate (1 μM) and kinase in the presence of an ATP concentration range from 0 to 500 μM. The Km for ATP was then calculated from a plot of ATP concentration against initial reaction velocity followed by non-linear regression analysis (GraphPad Prism). For inhibition experiments, the assay was first optimized to determine the amount of kinase or kinase plus Nef (1:10 molar ratio) necessary to phosphorylate ~50% of the Tyr-2 peptide substrate in the presence of an ATP concentration equal to twice the Km. […] Fluorescence was assessed at an excitation wavelength of 400 nm; coumarin fluorescence and the fluorescein FRET signal were monitored at 445 and 520 nm, respectively. […] Raw fluorescence values were corrected for background, and reaction endpoints calculated as emission ratios of coumarin fluorescence divided by the fluorescein FRET signal. […] IC50 values were calculated using a sigmoidal curve fit using GraphPad Prism. […]

The next assay has as its target T2, mHck-TA + Nef-SF2 (Mus musculus, UniProt P08103, Q521E/Q522E/Q523I/T331A).
T2 construct: the N-terminal unique domain was replaced with a hexahistidine tag; hexahistidine (N); made in house; host or cells: Hck: Sf9 insect cells; Nef: E. coli
The assay is described as follows: Z'-Lyte in vitro kinase assay, mHck-TA + Nef-SF2. Particulars: mHck-TA + Nef-SF2 (10-fold molar excess); ATP at twice the Km; read-out: IC50, NaPP1. Format: biochemical. The method, then:
as §1

In a further assay the target is T3, mHck-TA + Nef-Consensus (Mus musculus, UniProt P08103, Q521E/Q522E/Q523I/T331A).
T3 construct: the N-terminal unique domain was replaced with a hexahistidine tag; hexahistidine (N); made in house; host or cells: Hck: Sf9 insect cells; Nef: E. coli
The assay is described as follows: Z'-Lyte in vitro kinase assay, mHck-TA + Nef-Consensus. Format: biochemical. Particulars: mHck-TA + Nef-Consensus (10-fold molar excess); ATP at twice the Km; read-out: IC50, NaPP1. As to the method:
as §1

For a further assay, the target named is T4, mHck-TA-HART + Nef-SF2 (Mus musculus, UniProt P08103, A89S/E88T/E93W/H91F/I90P/Q521E/Q522E/Q523I/R92P/T331A).
T4 construct: the N-terminal unique domain was replaced with a hexahistidine tag; hexahistidine (N); made in house; host or cells: Hck: Sf9 insect cells; Nef: E. coli
The assay is described as follows: biochemical. The method, then:
as §1

For assay [1], the target named is mHck-TA-HART + Nef-Consensus (Mus musculus, UniProt P08103, A89S/E88T/E93W/H91F/I90P/Q521E/Q522E/Q523I/R92P/T331A). In words: Z'-Lyte in vitro kinase assay, mHck-TA-HART + Nef-Consensus. Format: biochemical. As to the method: as §1

As usually defined, the IC50 is the point on the concentration scale where inhibition reaches its midpoint. Take `CC(C)(C)n1nc(-c2cccc3ccccc23)c2c(N)ncnc21` [NaPP1, reference compound]: the IC50 at mHck + Nef-SF2 was > 1000 nM; at mHck-TA + Nef-SF2, 47.4 ± 6 nM; on mHck-TA + Nef-Consensus, 37.6 ± 4.6 nM; at mHck-TA-HART + Nef-SF2, 2.4 ± 0.3 nM; in assay [1] it was 3.2 ± 0.2 nM.
